Compound potency records, mixed from different reports. Data source: NIAID ChemDB in PubChem.

Common to all: tests on isolated targets

ICn: concentration for n% inhibition. Rows are shuffled and stem from different studies. Blank or dashed fields: not listed here. Two numbers with a dash give a range or band.

SMILES	read by	target	strain or isolate	endpoint	organism	result
COc1ccc(/C=C/C(=O)NCCCCNc2ccnc3cc(Cl)ccc23)cc1	fluorescence	Falcipain-2 (FP2)	Recombinant	IC50	Plasmodium falciparum	>50 µM
O=c1[nH]cnc2c1ncn2[C@@H]1CNC[C@@H]1OCP(=O)(O)O	absorbance	Hypoxanthine-guanine-xanthine phosphoribosyltransferase	-	Ki	Plasmodium falciparum	0.6 µM
Nc1nc2c(ncn2CC(CO)OCP(=O)(O)O)c(=O)[nH]1	absorbance	Hypoxanthine-guanine-xanthine phosphoribosyltransferase	-	Ki	Plasmodium falciparum	0.6 µM
COc1cc(NC(C)CCCN)c2nccc(C)c2c1OCc1cccc(C(F)(F)F)c1	nucleotide incorporation	Hematin	-	IC50	Plasmodium falciparum	27 µM
Cc1c(-c2ccc(-c3ccc(OC(C)(C)C)cc3)nc2)[nH]c2cc(F)ccc2c1=O	-	PfNDH2	-	IC50	Plasmodium falciparum	0.0047 µM
COc1cc(NC(C)CCCN)c2nccc(C)c2c1OCCCCCc1cccs1	nucleotide incorporation	Hematin	-	IC50	Plasmodium falciparum	140 µM
CCOC(=O)COc1cccc(-c2cc(Cl)cc(C3(C4CCC4)C(C#N)=C(N)Oc4n[nH]c(C)c43)c2)c1	absorbance	Serine hydroxymethyltransferase	-	Ki	Plasmodium falciparum	0.198 µM
CN1CCC(NC2=CCC3=NC=C(c4cnn(-c5ccc(F)cn5)c4)[N+]3=N2)CC1	-	Calcium-dependent protein kinase 1	-	IC50	Plasmodium falciparum	0.04 µM
CO[C@H](C(=O)NO)[C@@H](CC(C)C)C(=O)N[C@H](C(=O)OC1CCCC1)c1ccccc1	fluorescence	PfM17LAP	-	Ki	Plasmodium falciparum	0.075 µM
O=C(/C=C/c1ccccc1)NCCCCNc1ccnc2cc(Cl)ccc12	fluorescence	Falcipain-2 (FP2)	Recombinant	IC50	Plasmodium falciparum	>50 µM
O=C(c1ccc([N+](=O)[O-])o1)N1CCN(c2nc3c(Cl)cccc3s2)CC1	-	Thioredoxin reductase	-	IC50	Plasmodium berghei	5 µM
O=c1[nH]cnc2c1ncn2[C@@H]1CNC[C@H]1OCP(=O)(O)O	absorbance	Hypoxanthine-guanine-xanthine phosphoribosyltransferase	-	Ki	Plasmodium falciparum	80 µM
Cc1[nH]nc2c1C(c1cc(Cl)cc(C#N)c1)(C(C)C)C(C#N)=C(N)O2	absorbance	Serine hydroxymethyltransferase	-	IC50	Plasmodium falciparum	0.52 µM
O=C(/C=C/c1ccc(Br)cc1)NCCCCNc1ccnc2cc(Cl)ccc12	fluorescence	Falcipain-2 (FP2)	Recombinant	IC50	Plasmodium falciparum	>50 µM
CCCCCn1c(Sc2ccc(C#N)c([N+](=O)[O-])c2)nnc1-c1cccs1	-	Thioredoxin reductase	-	IC50	Plasmodium berghei	4.8 µM
CC(C)c1ccc(/C=C/C(=O)NCCCCNc2ccnc3cc(Cl)ccc23)cc1	fluorescence	Falcipain-2 (FP2)	Recombinant	IC50	Plasmodium falciparum	>50 µM
COc1cc(NC(C)CCCN)c2nccc(C)c2c1OCCCCCCCCc1ccccc1	nucleotide incorporation	Hematin	-	IC50	Plasmodium falciparum	98 µM
CC(C)Cn1c(Sc2ccc(C#N)c([N+](=O)[O-])c2)nnc1-c1ccccc1Cl	-	Thioredoxin reductase	-	IC50	Plasmodium vivax	4.7 µM
O=c1c(-c2ccc(Oc3ccc(OC(F)(F)F)cc3)cc2)c(CO)[nH]c2ccccc12	FRET	PfNDH2	3D7	IC50	Plasmodium falciparum	>0.056 µM
N#CCN(CCn1cnc2c(=O)[nH]c(N)nc21)CCP(=O)(O)O	absorbance	Hypoxanthine-guanine phosphoribosyltransferase	-	Ki	Plasmodium vivax	47 µM
CCN(CC)CCCC(C)NC(=O)c1ccc(-c2cc(C#N)cc(C3(C(C)C)C(C#N)=C(N)Oc4n[nH]c(C)c43)c2)s1	absorbance	Serine hydroxymethyltransferase	-	IC50	Plasmodium falciparum	0.35 µM
CN1CCC(NC2=CCC3=NC=C(c4cnn(-c5cnccn5)c4)[N+]3=N2)CC1	-	Calcium-dependent protein kinase 1	-	IC50	Plasmodium falciparum	0.013 µM
C=C1C(=O)O[C@H]2C1CC[C@@]1(C)C=CC(=O)C(=C)[C@H]21	LDH	Lactase dehydrogenase	D10	IC50	Plasmodium falciparum	1.611–2.115 µM
Cc1ccc2c(c1)SC(c1cccc(S)c1)C1=C(N2)c2ccccc2C1=O	fluorescence	NDH2	-	IC50	Plasmodium falciparum	>20 µM
Nc1ccc(/C=C/C(=O)NCCCCNc2ccnc3cc(Cl)ccc23)cc1	fluorescence	Falcipain-2 (FP2)	Recombinant	IC50	Plasmodium falciparum	>50 µM
Nc1nc2c(ncn2CCOCP(=O)(O)O)c(=O)[nH]1	absorbance	Hypoxanthine-guanine-xanthine phosphoribosyltransferase	-	Ki	Plasmodium falciparum	1.6 µM
CN1CCC(NC2=CCC3=NC=C(c4cnn(-c5ncccc5F)c4)[N+]3=N2)CC1	-	Calcium-dependent protein kinase 1	-	IC50	Plasmodium falciparum	0.239 µM
Cc1ccc(/C=C/C(=O)NCCCCNc2ccnc3cc(Cl)ccc23)cc1	fluorescence	Falcipain-2 (FP2)	Recombinant	IC50	Plasmodium falciparum	>50 µM
Cc1[nH]nc2c1C(c1cc(Cl)cc(Cl)c1)(C(C)C)C(C#N)=C(N)O2	absorbance	Serine hydroxymethyltransferase	-	Ki	Plasmodium falciparum	0.2868 µM
COc1cc(NC(C)CCCN)c2nccc(C)c2c1OCCCCCc1ccc(C)cc1	nucleotide incorporation	Hematin	-	IC50	Plasmodium falciparum	44 µM

Repeating the first 4 entries:

| SMILES | read by | target | strain or isolate | endpoint | organism | result |
|---|---|---|---|---|---|---|
| COc1ccc(/C=C/C(=O)NCCCCNc2ccnc3cc(Cl)ccc23)cc1 | fluorescence | Falcipain-2 (FP2) | Recombinant | IC50 | Plasmodium falciparum | >50 µM |
| O=c1[nH]cnc2c1ncn2[C@@H]1CNC[C@@H]1OCP(=O)(O)O | absorbance | Hypoxanthine-guanine-xanthine phosphoribosyltransferase | - | Ki | Plasmodium falciparum | 0.6 µM |
| Nc1nc2c(ncn2CC(CO)OCP(=O)(O)O)c(=O)[nH]1 | absorbance | Hypoxanthine-guanine-xanthine phosphoribosyltransferase | - | Ki | Plasmodium falciparum | 0.6 µM |
| COc1cc(NC(C)CCCN)c2nccc(C)c2c1OCc1cccc(C(F)(F)F)c1 | nucleotide incorporation | Hematin | - | IC50 | Plasmodium falciparum | 27 µM |